Measurements reported in PubChem BioAssay AID624099 (ICCB-Longwood, 2012).

Purpose: 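Knock-downs relieving repression by E2 of an HPV18 LCR luciferase reporter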 (primary screen)
Cells: human C33A cervical carcinoma cells (HPV-negative) stably expressing BPV1 E2 and an HPV18 LCR luciferase reporter
Reagent: siRNA pool against human genes, 40 nM
Time to read-out: 72 h
Detection: 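HPV18 LCR reporter light per well, converted to plate-wise z-scores that exclude control wells, and averaged over triplicate plates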
Direction: mean z-score and z-score: higher = stronger reporter signal, weaker E2 silencing
Call rule: 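Mean z ≥ 2 together with z ≥ 2 in two or more of the three replicates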
The deposit covers about 21,000 reagents; this is an unselected part. In the full data, 497 (2.4%) were called active. 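Higher z means weaker E2 silencing; only reporter increases were scored, and knock-downs that hurt cell survival may mask genuine repressor factors.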 A number with no mark means an inactive call.

LOC387764 (retired record) | mean z-score: 0.72; z-score, replicate A: 0.21; z-score, replicate B: 0.78; z-score, replicate C: 1.19
GPR107 | mean z-score: 0.03; z-score, replicate A: -0.21; z-score, replicate B: 0.24; z-score, replicate C: 0.05
CTDSPL | mean z-score: 0.95; z-score, replicate A: 0.99; z-score, replicate B: 0.99; z-score, replicate C: 0.87
CRH | mean z-score: 0.03; z-score, replicate A: 0.05; z-score, replicate B: 0.02; z-score, replicate C: 0.03
AP4M1 | mean z-score: 0.86; z-score, replicate A: 0.82; z-score, replicate B: 0.94; z-score, replicate C: 0.8
NUP133 | mean z-score: 0.94; z-score, replicate A: 1.06; z-score, replicate B: 0.71; z-score, replicate C: 1.06
FAM216A | mean z-score: -0.49; z-score, replicate A: -0.1; z-score, replicate B: -0.54; z-score, replicate C: -0.84
SNX20 | mean z-score: -0.95; z-score, replicate A: -1.05; z-score, replicate B: -1.22; z-score, replicate C: -0.57
ALKBH2 | mean z-score: 0.7; z-score, replicate A: 0.79; z-score, replicate B: 0.71; z-score, replicate C: 0.59
CAPN15 | mean z-score: 3.21 (active); z-score, replicate A: 3.71; z-score, replicate B: 2.9; z-score, replicate C: 3.04
CDC42BPB | mean z-score: -0.45; z-score, replicate A: -0.5; z-score, replicate B: -0.56; z-score, replicate C: -0.3
LOC400785 (retired record) | mean z-score: -0.03; z-score, replicate A: 0.09; z-score, replicate B: -0.41; z-score, replicate C: 0.22
SUCLA2 | mean z-score: 0.92; z-score, replicate A: 0.62; z-score, replicate B: 0.77; z-score, replicate C: 1.37
ZDHHC7 | mean z-score: -0.71; z-score, replicate A: -0.47; z-score, replicate B: -0.74; z-score, replicate C: -0.91
LOC400939 (retired record) | mean z-score: -0.95; z-score, replicate A: -0.4; z-score, replicate B: -1.13; z-score, replicate C: -1.34
FBXL22 | mean z-score: 0.18; z-score, replicate A: -0.37; z-score, replicate B: 0.3; z-score, replicate C: 0.61
PUS3 | mean z-score: 0.11; z-score, replicate A: 0.68; z-score, replicate B: -0.31; z-score, replicate C: -0.03
TCAP | mean z-score: -0.18; z-score, replicate A: -0.15; z-score, replicate B: -0.09; z-score, replicate C: -0.31
LOC253662 (retired record) | mean z-score: -0.08; z-score, replicate A: 0.25; z-score, replicate B: -0.05; z-score, replicate C: -0.44
GLTPD2 | mean z-score: 1.21; z-score, replicate A: 1.1; z-score, replicate B: 1.47; z-score, replicate C: 1.05
CYP19A1 | mean z-score: 0.13; z-score, replicate A: 0.12; z-score, replicate B: 0.2; z-score, replicate C: 0.07
